Assay results reported in the supplement of paper PMC3578754.
Fold change is the IC50 on the isolate divided by the IC50 on a reference virus; 1 = unchanged, higher = more resistant. Changes are given against the subtype B consensus. No active / inactive call. The values were gathered from many studies (numbered anew) with different assays, which the source does not name. Most viruses are clinical isolates; some are laboratory strains or clones with known resistance changes. Isolates with mixed residues are left out; stretches that were not sequenced show no change. Round top values that many isolates share are read here as limits; other very high values and 0.1 may be limits too. For part of these data: The protease changes I3V and N37S, insertions and deletions cannot be read from the source.

Key:
zidovudine = compound: Cc1cn([C@H]2C[C@H](N=[N+]=[N-])[C@@H](CO)O2)c(=O)[nH]c1=O [zidovudine]; assay: fold change of IC50 against reference virus; higher = more resistant
Experimental: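 Cell-culture drug susceptibility tests of virus bearing the reverse transcriptase of each isolate, gathered from many studies.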

saquinavir = compound: CC(C)(C)NC(=O)[C@@H]1C[C@@H]2CCCC[C@@H]2CN1C[C@@H](O)[C@H](Cc1ccccc1)NC(=O)[C@H](CC(N)=O)NC(=O)c1ccc2ccccc2n1 [saquinavir]; assay: fold change of IC50 against reference virus; higher = more resistant; Cell-culture drug susceptibility tests of virus bearing the protease of each isolate, gathered from many studies.
indinavir = compound: CC(C)(C)NC(=O)[C@@H]1CN(Cc2cccnc2)CCN1C[C@@H](O)C[C@@H](Cc1ccccc1)C(=O)N[C@H]1c2ccccc2C[C@H]1O [indinavir]; assay: as above
ritonavir = compound: CC(C)c1nc(CN(C)C(=O)N[C@H](C(=O)N[C@@H](Cc2ccccc2)C[C@H](O)[C@H](Cc2ccccc2)NC(=O)OCc2cncs2)C(C)C)cs1 [ritonavir]; assay: as above
nelfinavir = compound: Cc1c(O)cccc1C(=O)N[C@@H](CSc1ccccc1)[C@H](O)CN1C[C@H]2CCCC[C@H]2C[C@H]1C(=O)NC(C)(C)C [nelfinavir]; assay: as above

| Test System | fold change of IC50 against reference virus (zidovudine) | fold change of IC50 against reference virus (saquinavir) | fold change of IC50 against reference virus (indinavir) | fold change of IC50 against reference virus (ritonavir) | fold change of IC50 against reference virus (nelfinavir) |
| --- | --- | --- | --- | --- | --- |
| HIV-1 isolate 170 (reverse transcriptase changes: K122E L210W F214L T215Y A272P K277R A376T A400T D460N S468T H483Y K512Q S519N, study 126) | 27 | – | – | – | – |
| HIV-1 isolate 467 (reverse transcriptase changes: M41L K122E L210W F214L T215Y A272P K277R A376T A400T D460N S468T H483Y K512Q S519N, study 103) | 71 | – | – | – | – |
| HIV-1 isolate 956 (reverse transcriptase changes: M41L D67N K70R K122E M184V L210W F214L T215Y A272P K277R A376T A400T D460N S468T H483Y K512Q S519N, study 126) | 9 | – | – | – | – |
| HIV-1 isolate 518 (reverse transcriptase changes: M41L K122E F214L T215Y A272P K277R M357T A376T A400T N447S D460N S468T S519N, study 103) | 33 | – | – | – | – |
| HIV-1 isolate 482 (reverse transcriptase changes: M41L W88G K122E F214L T215Y A272P K277R M357T A376T A400T N447S D460N S468T S519N, study 103) | 1 | – | – | – | – |
| HIV-1 isolate 186 (reverse transcriptase changes: M41L D67N K70R K122E F214L T215Y K219Q A272P K277R A376T A400T D460N S468T H483Y K512Q S519N, study 103) | 56 | – | – | – | – |
| HIV-1 isolate 1248 (reverse transcriptase changes: M41L D67N K70R K122E M184V F214L T215Y A272P K277R G333E M357T, study 34) | 170 | – | – | – | – |
| HIV-1 isolate 27 (reverse transcriptase changes: M41L D67N K70R W88G K122E F214L T215Y A272P K277R M357T A376T A400T N447S D460N S468T S519N, study 103) | 0.4 | – | – | – | – |
| HIV-1 isolate 1381 (reverse transcriptase changes: K122E F214L A272P K277R A376T A400T D460N S468T H483Y K512Q S519N, study 126) | 1 | – | – | – | – |
| HIV-1 isolate 169 (reverse transcriptase changes: M41L I135T E204K L210W T215Y I293V E297K D324P I329L A360V K431N V435A D460N S468P L491S, study 103) | 420 | – | – | – | – |
| HIV-1 isolate 1397 (reverse transcriptase changes: M41L K122E M184V L210W F214L T215Y A272P K277R A376T A400T D460N S468T H483Y K512Q S519N, study 126) | 5 | – | – | – | – |
| HIV-1 isolate 729 (reverse transcriptase changes: D67N K70R K122E F214L T215Y A272P K277R A376T A400T D460N S468T H483Y K512Q S519N, study 143) | 31 | – | – | – | – |
| HIV-1 isolate 1625 (reverse transcriptase changes: L74V K122E F214L A272P K277R M357T A376T A400T N447S D460N S468T S519N, study 81) | 1.9 | – | – | – | – |
| HIV-1 isolate 301 (reverse transcriptase changes: K102Q S162C T215Y L234I K277R, study 1) | 1 | – | – | – | – |
| HIV-1 isolate 1132 (reverse transcriptase changes: M41L D67N K70R K122E M184V T200I E203K L210W R211K K219E L228H V245E L283I T286P K311R G359S, study 34) | 80 | – | – | – | – |
| HIV-1 isolate 1047 (protease changes: L10I K20R E35D M36I M46I F53L I54V D60E L63P A71V I84V L90M I93L, study 145) | – | 132 | 12 | 139 | 37 |
| HIV-1 isolate 422 (protease changes: I13V L63P, study 112) | – | 1.1 | 1 | 1.8 | 2.2 |
| HIV-1 isolate 1628 (protease changes: D30N L63P V77I N88D L90M, study 66) | – | 9.3 | 5.3 | 3.4 | 57 |
| HIV-1 isolate 14 (protease changes: D30N M46I I64V A71V, study 89) | – | 1 | 1 | 1 | 10 |
| HIV-1 isolate 861 (protease changes: L10F I13V K20T D30N E35D M36I K45Q M46I I54V I62V L63Q I64V I72V N88D, study 120) | – | 13.5 | 6.1 | 11.9 | 500 |
| HIV-1 isolate 529 (protease changes: M46I A71V, study 110) | – | 0.8 | 4.4 | 5.9 | 3.4 |
| HIV-1 isolate 753 (protease changes: M36I L63P H69Q, study 54) | – | 0.5 | 0.9 | 1.1 | 0.9 |
| HIV-1 isolate 870 (protease changes: L10I L63A, study 110) | – | 1.2 | 1.2 | 2.1 | 2 |
| HIV-1 isolate 962 (protease changes: L10F I13V L19T D30N R41K L63P N88D L90M, study 66) | – | 5 | 1.7 | 2.5 | 47 |
| HIV-1 isolate 528 (protease changes: L10F M46L R57K L63P A71V G73S I84V L90M, study 127) | – | 18 | 10.5 | 12 | 18.4 |
| HIV-1 isolate 1012 (protease changes: L10I V11I I13V G16E E35D L63T I64V C67Y V77I V82F, study 119) | – | 0.3 | 2.7 | 8 | 4.3 |
| HIV-1 isolate 953 (protease changes: T12S I15V L19I M36I R41K Q61E H69K L89M I93L, study 139) | – | 1 | 2 | 1 | 1 |
